A mixed list of measured activities; the numbers were collected in NIAID ChemDB.

Shared fields: tests in culture; species: Mycobacterium avium

Blank or dashed fields: not listed here. Rows are shuffled and stem from different studies.

| SMILES | setting | changes | endpoint | method | strain | value |
|---|---|---|---|---|---|---|
| O=C(Oc1cc(Cl)ccc1C(=O)Nc1cccc(Br)c1)c1ccccc1 | 14 d | - | MIC | broth dilution | 330/88 | 4 µM |
| Fc1ccc(-n2c(=S)oc3ccc(Br)cc3c2=S)cc1 | 14 d | - | MIC | - | MY330/88 | 16 µM |
| Cc1ccc(C(=O)NCc2cccnc2)c(O)c1 | 14 d | - | MIC | - | ATCC 25291 | 500 µM |
| C(=C\c1ccccc1)/CNc1ccccc1N1CCSCC1 | - | - | MIC | - | 103317 | 98.8 µM |
| Cn1cnnc1SCc1ccc(C#N)cc1 | - | - | MIC | - | MY330/88 | >1000 µM |
| CCCOc1cccc(NC(=O)OCCN2CCCCC2)c1 | - | - | MIC | - | MY330/88 | 250 µM |
| Cc1ccc2oc(=O)n(-c3cccc(F)c3)c(=S)c2c1 | 21 d | - | MIC | - | MY330/88 | 16 µM |
| c1ccc(C(Cn2ccnc2)NCc2cccc3ccccc23)cc1 | - | - | MIC | - | 103317 | 24.4 µM |
| O=C(NCc1cccc(Cl)c1)c1ncccc1S | - | - | MIC | - | CNCTC MY330/88 | 8 µM |
| c1ccc(/C(Cn2ccnc2)=N/OCc2cccc3ccccc23)cc1 | - | - | MIC | - | CIP103317 | >16 µg/mL |
| CCOc1cccc(NC(=O)OCCN(C)C)c1 | - | - | MIC | - | MY330/88 | >250 µM |
| Cc1ccc(-n2c(=S)oc3ccc(C)cc3c2=S)cc1 | 14 d | - | MIC | - | MY330/88 | 2 µM |
| O=C(NCc1cccnc1)c1ccc(Cl)cc1O | 14 d | - | MIC | - | ATCC 25291 | 250 µM |
| O=[N+]([O-])c1cc(CSc2ncn[nH]2)cc([N+](=O)[O-])c1 | - | - | MIC | - | MY330/88 | 500 µM |
| CCCCCCCOc1ccc(NC(=O)OCC[NH+]2CCCC2)cc1 | - | - | MIC | - | MY330/88 | 16 µM |
| Cc1ccc2c(=O)n(-c3ccc(Br)cc3)c(=O)oc2c1 | - | - | MIC | - | CNCTC MY330/88 | 16 µM |
| CCCCCOc1ccccc1NC(=O)OCC[NH+]1CCCC1 | - | - | MIC | - | MY330/88 | 125 µM |
| CCCCCCOc1ccc(NC(=O)OCCN2CCCCC2)cc1 | - | - | MIC | - | MY330/88 | 32 µM |
| CCCCCOc1cccc(NC(=O)OCCN2CCOCC2)c1 | - | - | MIC | - | MY330/88 | 62.5 µM |
| CCCCOc1cccc(NC(=O)OCCN2CCCCC2)c1 | - | - | MIC | - | MY330/88 | 62.5 µM |
| O=C(Oc1cc(Cl)ccc1C(=O)Nc1cccc(Cl)c1)c1ccccc1 | 21 d | - | MIC | broth dilution | 330/88 | 8 µM |
| Cc1ccn2c(C(=O)NCc3ccc(N4CCC(c5ccc(C(F)(F)F)cc5)CC4)nc3)c(C)nc2c1 | - | - | MIC | resazurin | 101 | <2 µM |
| Clc1ccc(CNc2ccc(N3CCOCC3)cc2)cc1 | - | - | MIC | - | 103317 | 101 µM |
| Cc1ccc2oc(=O)n(-c3ccc(Br)cc3)c(=S)c2c1 | 21 d | - | MIC | - | MY330/88 | 4 µM |
| Cc1cn2c(C(=O)NCc3ccc(Oc4ccc(C(F)(F)F)cc4)cc3)c(C)nc2s1 | - | - | MIC | resazurin | 2151 | <2 µM |
| Fc1ccc(/C(Cn2ccnc2)=N/OCc2ccccc2)cc1 | - | - | MIC | - | CIP103317 | 4 µg/mL |
| COc1ccc2oc(=O)n(-c3ccc(Cl)cc3)c(=S)c2c1 | 14 d | - | MIC | - | MY330/88 | 32 µM |
| O=C(NCc1ccccc1)c1ccc(Cl)cc1O | 14 d | - | MIC | - | ATCC 25291 | 62 µM |
| Fc1ccc(/C(Cn2ccnc2)=N/OCc2ccccc2)cc1 | - | - | MIC | - | 103317 | 25.9 µM |
| Cc1ccc(C(=O)NCc2ccccn2)c(O)c1 | 14 d | - | MIC | - | ATCC 25291 | 250 µM |
| C(=C\c1ccccc1)/CO/N=C(/Cn1ccnc1)c1ccccc1 | - | - | MIC | - | 103317 | 25.2 µM |
| O=C(Oc1ccc(Cl)cc1C(=O)Nc1cccc(Cl)c1)c1ccccc1 | 14 d | - | MIC | broth dilution | 330/88 | 4 µM |
| Clc1ccc(/C(Cn2ccnc2)=N/OCc2ccccc2)cc1 | - | - | MIC | - | CIP103317 | 8 µg/mL |
| Clc1ccc2c(c1)nc1cc(Nc3ccccc3)c(=NC3CCCCC3)cc-1n2-c1ccccc1 | - | - | MIC | - | 11882 | 1.3 µg/mL |
| COc1ccc2c(=O)n(-c3cccc(F)c3)c(=O)oc2c1 | - | - | MIC | - | CNCTC MY330/88 | 62.5 µM |
| O=C(Nc1ccc(F)cc1)c1ncccc1O | - | - | MIC | - | CNCTC MY330/88 | 62.5 µM |
| c1ccc(-c2ccc(CNc3ccccc3-n3ccnc3)cc2)cc1 | - | - | MIC | - | 103317 | 23.6 µM |
| CCc1nc2ccc(Cl)cn2c1C(=O)NCc1ccc(N2CCSCC2)c(F)c1 | - | Gentamicin-resistant | MIC | resazurin | 104 | <0.0078 µg/mL |
| COc1ccc(NC(=O)OCCN2CCOCC2)cc1 | - | - | MIC | - | MY330/88 | 1000 µM |
| Clc1ccc(/C(Cn2ccnc2)=N\OCc2cccc3ccccc23)cc1 | - | - | MIC | - | 103317 | 21.3 µM |
| O=C(NCc1ccc(Cl)cc1)c1ncccc1S | - | - | MIC | - | CNCTC MY330/88 | 16 µM |
| NC(=S)c1cccc(CSc2ncn[nH]2)c1 | - | - | MIC | - | MY330/88 | 1000 µM |
| CCc1nc2ccc(Cl)cn2c1C(=O)NCc1ccc(N2CCC(c3ccc(OC(F)(F)F)cc3)CC2)cc1 | - | - | MIC | resazurin | 101 | <2 µM |
| Cc1ccc(-n2c(=O)oc3ccc(Br)cc3c2=S)cc1 | 14 d | - | MIC | - | MY330/88 | 32 µM |
| Cc1ccc2c(=O)n(-c3ccc(C#N)cc3)c(=O)oc2c1 | - | - | MIC | - | CNCTC MY330/88 | 32 µM |
| Cc1cccc(C(=O)NCc2cccnc2)c1O | 14 d | - | MIC | - | ATCC 25291 | 500 µM |
| Cc1c(F)c(N2CCNC(C)C2)cc2c1c(=O)c(C(=O)O)cn2C1CC1 | - | - | MIC | - | ATCC 25291 | 1 µg/mL |
| N#Cc1ccc(-n2c(=O)oc3ccc(F)cc3c2=O)cc1 | - | - | MIC | - | CNCTC MY330/88 | 32 µM |
| O=C(Oc1cc(Cl)ccc1C(=O)Nc1ccc(Br)cc1)c1ccccc1 | 14 d | - | MIC | broth dilution | 330/88 | 4 µM |
| O=C(Nc1ccc(Cl)c(Cl)c1)c1ncccc1S | - | - | MIC | - | CNCTC MY330/88 | 62.5 µM |
| S=c1oc2ccc(Br)cc2c(=S)n1-c1ccc(Cl)cc1 | 14 d | - | MIC | - | MY330/88 | 32 µM |
| CCCCCOc1ccccc1NC(=O)OCCN1CCCCC1 | - | - | MIC | - | MY330/88 | 125 µM |
| O=C(NCc1ccc(Cl)cc1)c1ncccc1O | - | - | MIC | - | CNCTC MY330/88 | 125 µM |
| CS(C)=O | - | - | MIC | resazurin | A5 | >1 µg/mL |
| COc1ccc2oc(=O)n(-c3cccc(F)c3)c(=S)c2c1 | 14 d | - | MIC | - | MY330/88 | 62.5 µM |
| Fc1ccc(/C(Cn2ccnc2)=N/OCc2cccc3ccccc23)cc1 | - | - | MIC | - | 103317 | 22.2 µM |
| FC(F)(F)c1cc(CSc2ncn[nH]2)cc(C(F)(F)F)c1 | - | - | MIC | - | MY330/88 | 500 µM |
| CCCCCCCOc1cccc(NC(=O)OC(C)CN2CCCCC2)c1 | - | - | MIC | - | MY330/88 | 16 µM |
| Cn1cnnc1SCc1ccc(C(N)=S)cc1 | - | - | MIC | - | MY330/88 | 1000 µM |
| Clc1ccc(/C(Cn2ccnc2)=N/OC/C=C/c2ccccc2)cc1 | - | - | MIC | - | CIP103317 | >16 µg/mL |
| Cc1cccc(C(N)=Nc2nc(-c3ccccn3)cc3ccccc23)c1 | - | - | MBC | - | 101 | 2 µg/mL |

Again, the opening 7 rows:

SMILES | setting | changes | endpoint | method | strain | value
O=C(Oc1cc(Cl)ccc1C(=O)Nc1cccc(Br)c1)c1ccccc1 | 14 d | - | MIC | broth dilution | 330/88 | 4 µM
Fc1ccc(-n2c(=S)oc3ccc(Br)cc3c2=S)cc1 | 14 d | - | MIC | - | MY330/88 | 16 µM
Cc1ccc(C(=O)NCc2cccnc2)c(O)c1 | 14 d | - | MIC | - | ATCC 25291 | 500 µM
C(=C\c1ccccc1)/CNc1ccccc1N1CCSCC1 | - | - | MIC | - | 103317 | 98.8 µM
Cn1cnnc1SCc1ccc(C#N)cc1 | - | - | MIC | - | MY330/88 | >1000 µM
CCCOc1cccc(NC(=O)OCCN2CCCCC2)c1 | - | - | MIC | - | MY330/88 | 250 µM
Cc1ccc2oc(=O)n(-c3cccc(F)c3)c(=S)c2c1 | 21 d | - | MIC | - | MY330/88 | 16 µM